{
  "source": "paper PMC10653817",
  "about": "“Cryo-EM structures of African swine fever virus topoisomerase” (2023)",
  "system": "African swine fever virus (ASFV) type II topoisomerase P1192R, African swine fever virus, Q00942 1-1192",
  "assay": "cryo-EM structure",
  "data": [
    {"substance": "African swine fever virus (ASFV) type II topoisomerase P1192R", "values": [
      {"measurement": "stoichiometry N", "value": 2}
    ]}
  ]
}
